The values below come from ChEMBL document CHEMBL1649198, “Efflux unbalance in Pseudomonas aeruginosa isolates from cystic fibrosis patients” (2009).

The test system of the experiment is Pseudomonas aeruginosa. The note with it: isolate 2804.

The sequence GENTAMICIN returned an MIC of 0.5 µg/mL.

The MIC is the lowest concentration that inhibits growth of the organism.
